Compound potency records, mixed from different reports. Data source: NIAID ChemDB in PubChem.

Shared fields: cytotoxicity tests; cells: DAUDI; measure: CC50

CCn: concentration that lowers growth or viability of the cells by n%. Rows are shuffled and stem from different studies.

SMILES | result
Nc1nc2c(ncn2[C@H]2C[C@]23C[C@@H]3CO)c(=O)[nH]1 | >199 µM
Nc1nc(N)c2ncn(/C=C3/C[C@@H]3CO)c2n1 | 38 µM
COC(=O)[C@H](C)NP(=O)(OC[C@H]1C/C1=C/n1cnc2c(=O)[nH]c(N)nc21)Oc1ccccc1 | >103 µM
Nc1nc2c(ncn2[C@H]2C[C@@]23C[C@H]3CO)c(=O)[nH]1 | >199 µM
Nc1ccn([C@@H]2C[C@@H](O)[C@H](CO)O2)c(=O)n1 | >50 µM
COc1nc(N)nc2c1ncn2C=C1CC1CO | >202 µM
COC(=O)C(C)NP(=O)(OC[C@@H]1C/C1=C/n1cnc2c(N)nc(N)nc21)Oc1ccccc1 | 14 µM
Nc1ncnc2c1ncn2[C@@H]1C[C@@H](O)[C@H](CO)O1 | 23.1 µM
COC(=O)[C@H](C)NP(=O)(OC[C@H]1C/C1=C/n1cnc2c(OC)nc(N)nc21)Oc1ccccc1 | 4.35 µM
Nc1nc(Cl)c2ncn(/C=C3/C[C@@H]3CO)c2n1 | 15 µM
COC(=O)C(C)NOP(OC[C@H]1C/C1=C/n1cnc2c(N)[nH]c(=O)nc21)Oc1ccccc1 | >102 µM
COC(=O)[C@H](C)NP(=O)(OC[C@H]1C/C1=C\n1cnc2c(N)nc(N)nc21)Oc1ccccc1 | >106 µM
COC(=O)[C@H](C)NP(=O)(OC[C@@H]1C[C@]12C[C@@H]2n1cnc2c(N)ncnc21)Oc1ccccc1 | 7.6 µM
Nc1nc(NC2CC2)c2ncn(/C=C3/C[C@@H]3CO)c2n1 | 13 µM
Nc1[nH]c(=O)nc2c1ncn2/C=C1/C[C@H]1CO | >214 µM
Nc1ncnc2c1ncn2/C=C1/C[C@H]1CO | 124 µM
Nc1nc(NC2CC2)c2ncn(C=C3CC3CO)c2n1 | >184 µM
Nc1ncnc2c1ncn2/C=C1/C[C@@H]1CO | 12 µM
COC(=O)[C@H](C)NP(=O)(OC[C@@H]1C[C@]12C[C@@H]2n1cnc2c(N)ncnc21)Oc1ccccc1 | 7.6 µM
COc1nc(N)nc2c1ncn2/C=C1/C[C@H]1CO | >202 µM
Nc1nc2c(ncn2[C@H]2C[C@@]23C[C@@H]3CO)c(=O)[nH]1 | >199 µM